Measurements from “University of Dundee, Small-Polar-MMV Screening Library” (2021), ChEMBL document CHEMBL3988442.

Mtb glucose medium: 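Whole-cell growth test on Mycobacterium tuberculosis, read after 3 days in glucose-containing 7H9 medium; the read-out is not stated. Compounds at 50 µM. Higher reads as more growth inhibition (inferred: compounds with an IC50 in retests scored well above the rest). About 69,000 compounds were tested under these conditions; 1.1% (about 760) showed 50% or more at least once.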
Mtb cholesterol medium: 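Growth of Mycobacterium tuberculosis over 4 days (cholesterol / DPPC medium with tyloxapol); the read-out is not stated. Tested at 50 µM. Direction is inferred from retests: higher values go with more growth inhibition. Of about 69,000 compounds tested this way, about 370 (0.54%) reached 50% or more in at least one test.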

Values are the deposited “Percent Effect”, in %.
How 0% and 100% were set is not recorded. Most values in the screen are low, and negative values occur.
The entries come from a sample that favours strong results.
Two or more numbers in one place are separate tests of the same structure; such repeats can differ widely.

Cn1cnc(S(=O)(=O)NCCCN2CCCC2=O)c1Cl read Mtb glucose medium: -36.55% and -5.286%.
CCc1cc(CNC(=O)N(C2CC2)C(C)c2ccco2)[nH]n1 (stereo unspecified) read Mtb glucose medium: 21.09%; Mtb cholesterol medium: 7.124%.
O=C(NCc1c(F)cccc1F)C1CN(C(=O)c2cnccn2)C1 read Mtb glucose medium: 2.403% and -10.93%.
CC1c2cccn2CCN1C(=O)CCc1nc(C2CC2)no1 (stereo unspecified) read Mtb glucose medium: -0.3677% and -22.79%.
CC1CCN(C(=O)c2cnn3c(-c4ccco4)ccnc23)CC1 read Mtb glucose medium: 11.78%.
CCc1cnc(N)nc1N[C@@H](C)c1ncccc1C read Mtb glucose medium: -8.579%; Mtb cholesterol medium: -13.15%.
CC1CCC(NS(=O)(=O)CC(=O)Nc2ccc(N3CCCC3)cn2)CC1 (stereo unspecified) read Mtb glucose medium: 16.8%.
CNCc1cc(C)n(-c2ccccc2OC)c1C read Mtb glucose medium: 55.42%.
CNC(=O)NC(=O)CCN1CCOC(c2ccc(Br)cc2)C1 (stereo unspecified) read Mtb cholesterol medium: 45.49%.
CCOc1cccc(C(=O)Nc2ccn(CC)n2)c1 read Mtb glucose medium: 27.43%.
Cc1ccc(C(=O)Nc2nc(C)no2)cc1 read Mtb glucose medium: 23.52%; Mtb cholesterol medium: -6.459%.
CCc1nnc2n1CCN(C(=O)CN(C)Cc1ccccc1)C2 read Mtb glucose medium: 0.5283%.
C=C/C=c1\c(=C/C)oc2c(NCc3ccccc3)nc(C)nc12 read Mtb glucose medium: 74.26%; Mtb cholesterol medium: 70.14%.
CN(CC1(C)COC1)C(=O)c1cc(-c2ccn(C)n2)nc2ccccc12 read Mtb cholesterol medium: 6.245% and 17.8%.
CCNC(=O)C(C)NC(=O)Nc1ccccc1Cl (stereo unspecified) read Mtb glucose medium: -22.02% and -8.757%.
COc1cccc(SCC(=O)N2CCCC(N3CCCC3=O)C2)c1 (stereo unspecified) read Mtb glucose medium: 27.71%.
Cc1ccc(-c2cc(CNC(=O)NC3CCCCNC3=O)on2)cc1 (stereo unspecified) read Mtb cholesterol medium: 7.711%.
N#CC1(C(=O)N2CCCN(c3nccs3)CC2)CCCC1 read Mtb glucose medium: 28.77%; Mtb cholesterol medium: 2.179%.
COc1ccc(-c2ccccc2CCN)c(OC)c1 read Mtb glucose medium: 47.37% and 61.82%; Mtb cholesterol medium: 33.92%.
CCC(C)N1CCc2nc(N3CCCC3)nc(NC(C)C)c2C1 (stereo unspecified) read Mtb glucose medium: -12.21%.
CC(C)(C)c1noc(CCC(=O)N2CCN(Cc3ccc(Cl)s3)CC2)n1 read Mtb glucose medium: -8.603%.
CN(C)CC(C)(C)Cn1cnc(-c2ccccc2)c1-c1ncc[nH]1 read Mtb glucose medium: -9.114% and -7.055%.
CC(C)c1nc(CN2CCOCC2)cs1 read Mtb glucose medium: -19.86%.
CCSc1ncc(CN2CCN(c3ccc(C#N)cc3)C(=O)C2)cn1 read Mtb cholesterol medium: -3.329%.
[H][C@]12CC[C@]([H])(CN(Cc3cc(C(C)(C)C)[nH]n3)C1)N(Cc1ccccn1)C2 read Mtb glucose medium: 6.828%.
Cc1noc(NC(=O)CCNC(=O)c2ccc(Br)cc2)n1 read Mtb glucose medium: -28.45%.
Cc1nc(NCCSc2cnn[nH]2)c2cccnc2n1 read Mtb cholesterol medium: -16.51%.
NCCc1nc(N(Cc2cncs2)C2CC2)c2ccccc2n1 read Mtb glucose medium: -7.703%.
FC(F)(F)COCCN1CCN(c2ccc3nncn3n2)CC1 read Mtb glucose medium: 22.48%.

The last 3 entries again:

- Cc1nc(NCCSc2cnn[nH]2)c2cccnc2n1 : Mtb cholesterol medium: -16.51%
- NCCc1nc(N(Cc2cncs2)C2CC2)c2ccccc2n1 : Mtb glucose medium: -7.703%
- FC(F)(F)COCCN1CCN(c2ccc3nncn3n2)CC1 : Mtb glucose medium: 22.48%